Measured values from several laboratories, pooled; numbers as filed in NIAID ChemDB.

All rows: whole-cell or culture tests; organism: Mycobacterium avium complex; read-out: MIC

Lines come from different laboratories, so protocols vary.

smiles	strain or isolate	value
CO[C@H]1/C=C/O[C@@]2(C)Oc3c(C)c(O)c4c(O)c(c(/C=N/N5CCN(C)CC5)c(O)c4c3C2=O)NC(=O)/C(C)=C\C=C\[C@H](C)[C@H](O)[C@@H](C)[C@@H](O)[C@@H](C)[C@H](OC(C)=O)[C@@H]1C	1110/HIV-	<2 µg/mL
CO[C@H]1/C=C/O[C@@]2(C)Oc3c(C)c(O)c4c(O)c(c(/C=N/N5CCN(C)CC5)c(O)c4c3C2=O)NC(=O)/C(C)=C\C=C\[C@H](C)[C@H](O)[C@@H](C)[C@@H](O)[C@@H](C)[C@H](OC(C)=O)[C@@H]1C	CIPT 140310006	0.1 µg/mL
CCc1cc(C(N)=S)ccn1	Isolate A	4 µg/mL
CCCN1CCN(c2cc(=O)c3nc4c(oc3c2)c2c(=O)c3c(O)c(C)c5c(c34)=C(O)[C@@](C)(O/C=C/[C@H](OC)[C@@H](C)[C@@H](OC(C)=O)[C@H](C)[C@H](O)[C@H](C)[C@@H](O)[C@@H](C)/C=C/C=C(/C)C(=O)N2)O5)CC1	31F093T	0.035 µg/mL
CO[C@H]1/C=C/O[C@@]2(C)Oc3c(C)c(O)c4c(O)c(c(/C=N/N5CCN(C)CC5)c(O)c4c3C2=O)NC(=O)/C(C)=C\C=C\[C@H](C)[C@H](O)[C@@H](C)[C@@H](O)[C@@H](C)[C@H](OC(C)=O)[C@@H]1C	N-276	1.56 µg/mL
COc1c(N2CCNC(C)C2)c(F)cc2c(=O)c(C(=O)O)cn(C3CC3)c12	N-444	2 µg/mL
CC[C@@H](CO)NCCN[C@@H](CC)CO	3218	32 µg/mL
CC(C)N=c1cc2n(-c3ccc(Cl)cc3)c3ccccc3nc-2cc1Nc1ccc(Cl)cc1	CH-5/HIV+	0.25 µg/mL
CO[C@H]1/C=C/O[C@@]2(C)Oc3c(C)c(O)c4c(=O)c(c5oc6cc(N7CCCC7)cc(=O)c6nc5c4c3=C2O)NC(=O)/C(C)=C\C=C\[C@H](C)[C@H](O)[C@@H](C)[C@@H](O)[C@@H](C)[C@H](OC(C)=O)[C@@H]1C	31F093T	0.15 µg/mL
COC1CCN(c2c(F)cc3c(=O)c(C(=O)O)cn(C4CC4)c3c2F)C1	PI12/39	1 µg/mL
C=CCCN1CCN(c2cc(=O)c3nc4c(oc3c2)c2c(=O)c3c(O)c(C)c5c(c34)=C(O)[C@@](C)(O/C=C/[C@H](OC)[C@@H](C)[C@@H](OC(C)=O)[C@H](C)[C@H](O)[C@H](C)[C@@H](O)[C@@H](C)/C=C/C=C(/C)C(=O)N2)O5)CC1	31F093T	0.07 µg/mL
CO[C@H]1/C=C/O[C@@]2(C)Oc3c(C)c(O)c4c(O)c(c(/C=N/N5CCN(C)CC5)c(O)c4c3C2=O)NC(=O)/C(C)=C\C=C\[C@H](C)[C@H](O)[C@@H](C)[C@@H](O)[C@@H](C)[C@H](OC(C)=O)[C@@H]1C	N-444	8 µg/mL
CC1COc2c(N3CCN(C)CC3)c(F)cc3c(=O)c(C(=O)O)cn1c23	733/HIV+	16 µg/mL
NCC1CCN(c2c(F)cc3c(=O)c(C(=O)O)cn(C4CC4)c3c2F)C1	1915112	16 µg/mL
CC[C@@H](CO)NCCN[C@@H](CC)CO	3342-4	3.8 µg/mL
NCC[C@H](O)C(=O)N[C@@H]1C[C@H](N)[C@@H](O[C@H]2O[C@H](CN)[C@@H](O)[C@H](O)[C@H]2O)[C@H](O)[C@H]1O[C@H]1O[C@H](CO)[C@@H](O)[C@H](N)[C@H]1O	Isolate 93	6.25 µg/mL
CC[C@H]1OC(=O)[C@H](C)[C@@H](O[C@H]2C[C@@](C)(OC)[C@@H](O)[C@H](C)O2)[C@H](C)[C@@H](O[C@@H]2O[C@H](C)C[C@H](N(C)C)[C@H]2O)[C@](C)(OC)C[C@@H](C)C(=O)[C@H](C)[C@@H](O)[C@]1(C)O	1129	2 µg/mL
CN(C)c1c(F)c(N2CCC(N(C)C)C2)c(F)c2c1c(=O)c(C(=O)O)cn2C1CC1	1760694	32 µg/mL
CC[C@H]1OC(=O)[C@H](C)[C@@H](O[C@H]2C[C@@](C)(OC)[C@@H](O)[C@H](C)O2)[C@H](C)[C@@H](O[C@@H]2O[C@H](C)C[C@H](N(C)C)[C@H]2O)[C@](C)(OC)C[C@@H](C)C(=O)[C@H](C)[C@@H](O)[C@]1(C)O	3214	2 µg/mL
NC[C@H]1O[C@H](O[C@H]2[C@H](O)[C@@H](O[C@H]3O[C@H](CO)[C@@H](O)[C@H](N)[C@H]3O)[C@H](N)C[C@@H]2N)[C@H](O)[C@@H](O)[C@@H]1O	N-289 (HIV-)	4 µg/mL
NCCC[C@H](N)CC(=O)N[C@H]1CNC(=O)[C@H]([C@H]2C[C@H](O)NC(N)=N2)NC(=O)/C(=C/NC(N)=O)NC(=O)[C@H](CO)NC(=O)[C@H](CO)NC1=O	TMC 1406	0.78 µg/mL
NC1CCN(c2c(F)cc3c(=O)c(C(=O)O)cn(C4CC4)c3c2F)C1	1915112	16 µg/mL
CN[C@@H]1[C@@H](O)[C@@H](O[C@@H]2[C@@H](O)[C@H](O[C@H]3O[C@H](CN)CC[C@H]3N)[C@@H](N)C[C@H]2N)OC[C@]1(C)O	TMC 1403	0.1 µg/mL
CCN(CC)CC1CCN(c2c(F)cc3c(=O)c(C(=O)O)cn(C4CC4)c3c2F)C1	PI12/39	2 µg/mL
CO[C@H]1/C=C/O[C@@]2(C)Oc3c(C)c(O)c4c(O)c(c(/C=N/N5CCN(C)CC5)c(O)c4c3C2=O)NC(=O)/C(C)=C\C=C\[C@H](C)[C@H](O)[C@@H](C)[C@@H](O)[C@@H](C)[C@H](OC(C)=O)[C@@H]1C	Strain 1	0.5 µg/mL
CN[C@@H]1[C@H](O[C@H]2[C@H](O[C@H]3[C@H](O)[C@@H](O)[C@H](N=C(N)N)[C@@H](O)[C@@H]3N=C(N)N)O[C@@H](C)[C@]2(O)C=O)O[C@@H](CO)[C@H](O)[C@H]1O	N-444	4 µg/mL
NC[C@@H]1O[C@H](O[C@H]2[C@@H](O)[C@H](O[C@@H]3[C@@H](O)[C@H](N)C[C@H](N)[C@H]3O[C@H]3O[C@H](CO)[C@@H](O)[C@H](O)[C@H]3N)O[C@@H]2CO)[C@H](N)[C@@H](O)[C@@H]1O	PLR-3/HIV+	1.56 µg/mL
CO[C@H]1/C=C/O[C@@]2(C)Oc3c(C)c(O)c4c(=O)c(c5oc6cc(N7CCOCC7)cc(=O)c6nc5c4c3=C2O)NC(=O)/C(C)=C\C=C\[C@H](C)[C@H](O)[C@@H](C)[C@@H](O)[C@@H](C)[C@H](OC(C)=O)[C@@H]1C	31F093T	0.3 µg/mL
CO[C@H]1/C=C/O[C@@]2(C)Oc3c(C)c(O)c4c(O)c(c(/C=N/N5CCN(C6CCCC6)CC5)c(O)c4c3C2=O)NC(=O)/C(C)=C\C=C\[C@H](C)[C@H](O)[C@@H](C)[C@@H](O)[C@@H](C)[C@H](OC(C)=O)[C@@H]1C	Serotype 1	>40 µg/mL
CC(C)N=c1cc2n(-c3ccc(Cl)cc3)c3ccccc3nc-2cc1Nc1ccc(Cl)cc1	Isolate A	1 µg/mL
O=C(O)c1cn(C2CC2)c2c(F)c(N3CCC(N4CCCC4)C3)c(F)cc2c1=O	PI12/39	1 µg/mL
NC[C@H]1O[C@H](O[C@H]2[C@H](O[C@@H]3O[C@H](CO)[C@@H](O)[C@H]3O)[C@@H](O)[C@H](N)C[C@@H]2N)[C@H](N)[C@@H](O)[C@@H]1O	TMC 1469	1.56 µg/mL
O=C(O)c1cn(C2CC2)c2c(F)c(N3CCS(=O)(=O)CC3)c(F)cc2c1=O	PI12/39	2 µg/mL
CO[C@H]1/C=C/O[C@@]2(C)Oc3c(C)c(O)c4c(O)c(c(/C=N/N5CCN(C)CC5)c(O)c4c3C2=O)NC(=O)/C(C)=C\C=C\[C@H](C)[C@H](O)[C@@H](C)[C@@H](O)[C@@H](C)[C@H](OC(C)=O)[C@@H]1C	3219	2 µg/mL
CO[C@H]1/C=C/O[C@@]2(C)Oc3c(C)c(O)c4c(=O)c(c5oc6cc(N7CCN(CC(C)C)CC7)cc(=O)c6nc5c4c3=C2O)NC(=O)/C(C)=C\C=C\[C@H](C)[C@H](O)[C@@H](C)[C@@H](O)[C@@H](C)[C@H](OC(C)=O)[C@@H]1C	N-444	0.06 µg/mL
CC[C@@H](CO)NCCN[C@@H](CC)CO	1056	8 µg/mL
NC[C@H]1O[C@H](O[C@H]2[C@H](O)[C@@H](O[C@H]3O[C@H](CO)[C@@H](O)[C@H](N)[C@H]3O)[C@H](N)C[C@@H]2N)[C@H](N)[C@@H](O)[C@@H]1O	TMC 1469	1.56 µg/mL
CC[C@H]1OC(=O)[C@H](C)[C@@H](O[C@H]2C[C@@](C)(OC)[C@@H](O)[C@H](C)O2)[C@H](C)[C@@H](O[C@@H]2O[C@H](C)C[C@H](N(C)C)[C@H]2O)[C@](C)(OC)C[C@@H](C)C(=O)[C@H](C)[C@@H](O)[C@]1(C)O	Strain 1	0.5 µg/mL
CO[C@H]1/C=C/O[C@@]2(C)Oc3c(C)c(O)c4c(O)c(c(N5CCN(Cc6c(C)cc(C)cc6C)CC5)c(O)c4c3C2=O)NC(=O)/C(C)=C\C=C\[C@H](C)[C@H](O)[C@@H](C)[C@@H](O)[C@@H](C)[C@H](OC(C)=O)[C@@H]1C	Isolate A	0.03 µg/mL
NC[C@H]1O[C@H](O[C@H]2[C@H](O)[C@@H](O[C@H]3O[C@H](CO)[C@@H](O)[C@H](N)[C@H]3O)[C@H](N)C[C@@H]2N)[C@H](O)[C@@H](O)[C@@H]1O	Isolate C-39	100 µg/mL
CO[C@H]1/C=C/O[C@@]2(C)Oc3c(C)c(O)c4c(O)c(c(/C=N/N5CCN(C)CC5)c(O)c4c3C2=O)NC(=O)/C(C)=C\C=C\[C@H](C)[C@H](O)[C@@H](C)[C@@H](O)[C@@H](C)[C@H](OC(C)=O)[C@@H]1C	31F093T	5 µg/mL
O=C(O)c1cn(C2CC2)c2c(F)c(N3CCC(n4ccnc4)C3)c(F)cc2c1=O	1988557	8 µg/mL
NC[C@@H]1O[C@H](O[C@H]2[C@@H](O)[C@H](O[C@@H]3[C@@H](O)[C@H](N)C[C@H](N)[C@H]3O[C@H]3O[C@H](CO)[C@@H](O)[C@H](O)[C@H]3N)O[C@@H]2CO)[C@H](N)[C@@H](O)[C@@H]1O	TMC 1406	<0.01 µg/mL

For reference, 4 entries again:

smiles | strain or isolate | value
NCCC[C@H](N)CC(=O)N[C@H]1CNC(=O)[C@H]([C@H]2C[C@H](O)NC(N)=N2)NC(=O)/C(=C/NC(N)=O)NC(=O)[C@H](CO)NC(=O)[C@H](CO)NC1=O | TMC 1406 | 0.78 µg/mL
NCC1CCN(c2c(F)cc3c(=O)c(C(=O)O)cn(C4CC4)c3c2F)C1 | 1915112 | 16 µg/mL
CCCN1CCN(c2cc(=O)c3nc4c(oc3c2)c2c(=O)c3c(O)c(C)c5c(c34)=C(O)[C@@](C)(O/C=C/[C@H](OC)[C@@H](C)[C@@H](OC(C)=O)[C@H](C)[C@H](O)[C@H](C)[C@@H](O)[C@@H](C)/C=C/C=C(/C)C(=O)N2)O5)CC1 | 31F093T | 0.035 µg/mL
NC[C@H]1O[C@H](O[C@H]2[C@H](O)[C@@H](O[C@H]3O[C@H](CO)[C@@H](O)[C@H](N)[C@H]3O)[C@H](N)C[C@@H]2N)[C@H](N)[C@@H](O)[C@@H]1O | TMC 1469 | 1.56 µg/mL